Assay results as given in ChEMBL document CHEMBL1148339, “Synthesis, structure-activity relationships, and drug resistance of beta-d-3'-fluoro-2',3'-unsaturated nucleosides as anti-HIV Agents” (J Med Chem, 2004).

Substrate: Nc1ncnc2c1ncn2[C@H]1C=C(F)[C@@H](CO)O1
Assay: Menten constant against adenosine deaminase (ADA)
How it was run: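 Deamination by calf intestinal mucosa adenosine deaminase (0.15 units, MW 33 000, in 2 mL) in phosphate buffer pH 7.4 at 25 °C, substrate 15–100 μM, monitored by UV at 265 nm. Initial rates from graphical fitting of concentration vs time; Vmax and KM from Lineweaver–Burk plot, kcat calculated from enzyme amount.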

B1: Adenosine deaminase (Bos taurus), P56658 (protein)
chain: MAQTPAFNKPKVELHVHLDGAIKPETILYYGRKRGIALPADTPEELQNIIGMDKPLSLPEFLAKFDYYMPAIAGCREAVKRIAYEFVEMKAKDGVVYVEVRYSPHLLANSKVEPIPWNQAEGDLTPDEVVSLVNQGLQEGERDFGVKVRSILCCMRHQPSWSSEVVELCKKYREQTVVAIDLAGDETIEGSSLFPGHVKAYAEAVKSGVHRTVHAGEVGSANVVKEAVDTLKTERLGHGYHTLEDATLYNRLRQENMHFEVCPWSSYLTGAWKPDTEHPVVRFKNDQVNYSLNTDDPLIFKSTLDTDYQMTKNEMGFTEEEFKRLNINAAKSSFLPEDEKKELLDLLYKAYGMPSPASAEQCL
  Km: 8.8 µM
